Experimental data from PubChem BioAssay AID2391 (Southern Research Specialized Biocontainment Screening …, 2010).
This is one part of the list. Results with a measured potency or affinity are listed apart. Some salts and complexes are drawn in separate pieces, as the source files them; their charges need not balance. Calls of active or inactive are those of the source. How the calls were made is not given here.

assay: inhibition of RSV-induced cytopathic effect – HEp-2 cells, primary 10 µM value included (AID 2391); details: at 10 µM, active compounds read high

| Compound | CPE inhibition |
| --- | --- |
| CCN(CC)CCCOC(=O)C(O)(c1ccccc1)c1ccccc1 | inactive: 0.64% |
| O=[N+]([O-])c1cc([N+](=O)[O-])c(Nc2cccnc2)c([N+](=O)[O-])c1 | inactive: 9.11% |
| O=[N+]([O-])c1ccc2c(c1)C=Nc1ccccc1O2 | inactive: 3.2% |
| CC(C)(C)c1ccc(OP(C)(=O)Nc2ccc(SC(F)(F)F)cc2)cc1 (stereo unspecified) | inactive: 0.5% |
| Cc1cccc(C)c1OP(C)(N)=O (stereo unspecified) | inactive: 0.46% |
| COc1ccccc1OP(C)(=O)Nc1ccc(C)cc1 (stereo unspecified) | inactive: 0.87% |
| Cc1ccc(NP(C)(=O)Oc2ccccc2)c(C)c1 (stereo unspecified) | inactive: 0.48% |
| CCOC(=O)c1ccc(NP(C)(=O)Oc2ccccc2)cc1 (stereo unspecified) | inactive: 1.63% |
| Cc1cc(C)cc(OP(C)(N)=O)c1 (stereo unspecified) | inactive: 0.72% |
| COc1ccccc1OP(C)(=O)Nc1cc(Cl)ccc1C (stereo unspecified) | inactive: 4.95% |
| COc1ccc(OP(C)(=O)Nc2cccc(F)c2)cc1 (stereo unspecified) | inactive: 0.17% |
| CP(=S)(Nn1cnnc1)Oc1ccccc1 (stereo unspecified) | inactive: 1.84% |
| CP(=O)(Nc1ccccc1Br)Oc1ccccc1 (stereo unspecified) | inactive: 1.6% |
| COc1ccccc1OP(C)(=O)Nc1ccccc1 (stereo unspecified) | inactive: -0.92% |
| Cc1cccc(C)c1OP(C)(=O)Nc1ccc(SC(F)(F)F)cc1 (stereo unspecified) | inactive: 2.94% |
| CP(=O)(Oc1ccccc1)OC(c1ccccc1)C(F)(F)F (stereo unspecified) | inactive: 0.48% |
| CP(=O)(NC(=O)Nc1ccccc1)Oc1ccccc1 (stereo unspecified) | inactive: -0.82% |
| CCc1ccc(OP(C)(=O)N2CCN(c3ccc([N+](=O)[O-])cc3)CC2)cc1 (stereo unspecified) | inactive: 6.11% |
| Cc1cc(C)cc(OP(C)(=O)Nc2ccc(SC(F)(F)F)cc2)c1 (stereo unspecified) | inactive: 1.89% |
| CCOC(=O)c1ccc(NP(C)(=O)Oc2ccc(OC)cc2)cc1 (stereo unspecified) | inactive: 2.81% |
| CCOP(C)(=S)SCC(=O)NC(C)C(=O)O (stereo unspecified) | inactive: 0.89% |
| CP(=O)(Nc1ccccn1)Oc1ccc(Cl)cc1 (stereo unspecified) | inactive: -0.21% |

| Compound | CPE inhibition |
| --- | --- |
| O=[N+]([O-])c1cc([N+](=O)[O-])c(-n2nnc3ccccc32)c([N+](=O)[O-])c1 | inactive: 2.21% |
| O=[N+]([O-])c1cc([N+](=O)[O-])c(-c2cnn(-c3ccccc3)c2)c([N+](=O)[O-])c1 | inactive: 14.1% |
| Cc1nc2ccc3ccccc3c2s1.O=[N+]([O-])c1cc([N+](=O)[O-])c(O)c([N+](=O)[O-])c1 | inactive: 7.29% |
| CC1=C2N=C(C=C3N=C(C(C)=C4[N-][C@@](C)([C@@H]5N=C1[C@](C)(CCC(=O)NC[C@@H](C)OP(=O)([O-])O[C@H]1[C@@H](O)[C@@H](n6cnc7cc(C)c(C)cc76)O[C@@H]1CO)[C@H]5CC(N)=O)[C@@](C)(CC(N)=O)[C@@H]4CCC(N)=O)[C@@](C)(CC(N)=O)[C@@H]3CCC(N)=O)C(C)(C)[C@@H]2CCC(N)=O.[C-]#N.[Co+3] | inactive: -0.04% |
| O=[N+]([O-])c1cc([N+](=O)[O-])c(Nc2nnnn2CCO)c([N+](=O)[O-])c1 | inactive: 2.15% |
| CCOC(=O)C(CC)C1=NC(C)(C)Cc2ccccc21.O=[N+]([O-])c1cc([N+](=O)[O-])c(O)c([N+](=O)[O-])c1 (stereo unspecified) | inactive: -0.82% |
| COc1ccccc1OP(C)(=O)Nc1c(C)cccc1C (stereo unspecified) | inactive: 0.72% |
| CN1CCCCC1COC(=O)C1(O)c2ccccc2CCc2ccccc21 (stereo unspecified) | inactive: 0.78% |
| CCCOc1ccc(NP(C)(=O)Oc2ccc(Cl)cc2)cc1 (stereo unspecified) | inactive: -0.58% |
| CP(=O)(Nc1ccc(SC(F)(F)F)cc1)Oc1ccccc1 (stereo unspecified) | inactive: 7.19% |
| O=C(O)c1cccc(Nc2c([N+](=O)[O-])cc([N+](=O)[O-])cc2[N+](=O)[O-])c1 | inactive: 0.24% |
| CC1=NCCc2c1[nH]c1ccccc21.O=[N+]([O-])c1cc([N+](=O)[O-])c(O)c([N+](=O)[O-])c1 | inactive: 6.09% |
| COc1ccccc1OP(C)(=O)Nc1cccc(Br)c1 (stereo unspecified) | inactive: -1.83% |
| CCOC(=O)c1ccc(NP(C)(=O)Oc2cc(C)cc(C)c2)cc1 (stereo unspecified) | inactive: 2.37% |
| Cc1cc(C)cc(OP(C)(=O)Nc2ccc(C)cc2C)c1 (stereo unspecified) | inactive: 1.39% |
| Cc1ccc(C)c(NP(C)(=O)Oc2ccccc2)c1 (stereo unspecified) | inactive: 1.86% |
| Cc1cc(C)cc(OP(C)(=O)Nc2ccccn2)c1 (stereo unspecified) | inactive: -1.47% |
| CP(=O)(Nc1cccc(Br)c1)Oc1ccccc1 (stereo unspecified) | inactive: 4.03% |
| CP(=O)(Nc1ccccc1F)Oc1ccccc1 (stereo unspecified) | inactive: 0.62% |
| CC(C)c1ccc(OP(C)(=O)Nc2ccc(SC(F)(F)F)cc2)cc1 (stereo unspecified) | inactive: 2.5% |
| O=C(OC1CN2CCC1CC2)c1ccc([N+](=O)[O-])cc1 (stereo unspecified) | inactive: 3% |
| O=C(OCCN1CCN(CCOCc2ccccc2)CC1)C(O)(c1ccccc1)c1ccccc1 | inactive: 0.73% |

| Compound | CPE inhibition |
| --- | --- |
| COc1ccc2c(c1O)-c1c(O)c(OC)cc3c1[C@H](C2)[N+](C)(C)CC3.O=[N+]([O-])c1cc([N+](=O)[O-])c([O-])c([N+](=O)[O-])c1[O-] | inactive: 2.1% |
| CCOC(=O)c1ccc(NP(C)(=O)Oc2ccc(F)cc2)cc1 (stereo unspecified) | inactive: 2.73% |
| COc1ccc(OP(C)(=O)Nc2ccc(SC(F)(F)F)cc2)cc1 (stereo unspecified) | inactive: 2.96% |
| CCN(CC)CCCOC(=O)C(O)(c1ccccc1)C1CCCCC1 (stereo unspecified) | inactive: -0.65% |
| CP(=O)(Nc1ccccc1)Oc1ccc(F)cc1 (stereo unspecified) | inactive: -0.71% |
| CCCCCOc1ccc(NP(C)(=O)Oc2ccc(Cl)cc2Cl)cc1 (stereo unspecified) | inactive: -0.27% |
| O=[N+]([O-])c1cc([N+](=O)[O-])c(OC2CCCCC2O)c([N+](=O)[O-])c1 (stereo unspecified) | inactive: 0.82% |
| COc1ccc(OP(C)(=O)Nc2cccc(Br)c2)cc1 (stereo unspecified) | inactive: 1.34% |
| CN(C)CCOC(=O)C(O)(c1ccccc1)C1CCCCC1 (stereo unspecified) | inactive: -1.26% |
| COc1ccc(NP(C)(=O)Oc2ccccc2OC)cc1 (stereo unspecified) | inactive: 0.63% |
| O=[N+]([O-])c1ccc(OP2(=O)COCCO2)cc1 (stereo unspecified) | inactive: 0.95% |
| O=[N+]([O-])c1cc([N+](=O)[O-])c(NCC2CCS(=O)(=O)C2)c([N+](=O)[O-])c1 (stereo unspecified) | inactive: 5.09% |
| CCOP(C)(=S)SCC(=O)NC(C)(CC)C(=O)O (stereo unspecified) | inactive: 3.48% |
| CP(=O)(Nc1ccc2c(c1)OCCO2)Oc1ccccc1 (stereo unspecified) | inactive: 0.92% |
| Cc1ccccc1NP(C)(=O)Nc1ccccc1C | inactive: 0.88% |
| CCN(CC)CC(O)COC(=O)C(O)(c1ccccc1)C1CCCCC1 (stereo unspecified) | inactive: -0.23% |
| COc1ccc(OP(C)(=O)Nc2ccc(Br)cc2)cc1 (stereo unspecified) | inactive: 0.82% |
| COc1ccccc1OP(C)(=O)Nc1c(C)n(C)n(-c2ccccc2)c1=O (stereo unspecified) | inactive: 0.25% |
| O=C(OCCCN1CCCC1)C(O)(c1ccccc1)C1CCCCC1 (stereo unspecified) | inactive: 0.48% |
| CP(=O)(Oc1ccccc1)N1CCOC1=O (stereo unspecified) | inactive: -0.69% |
| CCc1ccc(OP(C)(=O)Nc2cccnc2)cc1 (stereo unspecified) | inactive: 3.72% |
| COc1ccccc1OP(C)(=O)Nc1ccccc1Br (stereo unspecified) | inactive: 0.36% |

| Compound | CPE inhibition |
| --- | --- |
| CC(C)(C)c1ccc(OP(C)(=O)O)cc1 | inactive: 0.89% |
| CP(=O)(Nc1ccc(Cl)cc1)Oc1ccc(F)cc1 (stereo unspecified) | inactive: 1.23% |
| CN(C)C(=O)c1c([N+](=O)[O-])cc([N+](=O)[O-])cc1[N+](=O)[O-] | inactive: -1.09% |
| Nc1ccc2c(ccc3cccnc32)n1.O=[N+]([O-])c1cc([N+](=O)[O-])c(O)c([N+](=O)[O-])c1 | inactive: 10% |
| CCOC(=O)c1ccc(NP(C)(=O)Oc2ccc(Cl)cc2)cc1 (stereo unspecified) | inactive: 9.23% |
| CP(=O)(OC12CC3CC(CC(C3)C1)C2)OC12CC3CC(CC(C3)C1)C2 | inactive: -1.15% |
| Cc1cc(C)cc(OP(C)(=O)Nc2cccc(C(F)(F)F)c2)c1 (stereo unspecified) | inactive: 13.2% |
| COc1ccccc1OP(C)(=O)Nc1ccc(C)c(C)c1 (stereo unspecified) | inactive: 1.82% |
| COc1ccc(OP(C)(=O)Nc2ccccc2Br)cc1 (stereo unspecified) | inactive: 1.49% |
| Cc1nc2ccc3ccccc3c2o1.O=[N+]([O-])c1cc([N+](=O)[O-])c(O)c([N+](=O)[O-])c1 | inactive: -0.72% |
| CP(=O)(Nc1ccc(Cl)cc1Cl)Oc1ccccc1 (stereo unspecified) | inactive: -0.4% |
| CP(=O)(OCCOc1ccccc1)OCCOc1ccccc1 | inactive: 1.47% |
| COc1ccccc1OP(C)(=O)Nc1ccc(Br)cc1 (stereo unspecified) | inactive: -0.5% |
| COc1ccc(OP(C)(=O)Nc2ccccn2)cc1 (stereo unspecified) | inactive: -0.76% |
| CN(C)CCOC(=O)C(O)(c1ccccc1)C1CCCC1 (stereo unspecified) | inactive: 1.57% |
| Cc1c(NP(C)(=O)Oc2ccc(C(C)C)cc2)c(=O)n(-c2ccccc2)n1C (stereo unspecified) | inactive: 0.62% |
| O=[N+]([O-])c1cc([N+](=O)[O-])c(Nc2ccccn2)c([N+](=O)[O-])c1 | inactive: -2.4% |
| CP(=O)(Nc1ccccn1)Oc1ccccc1 (stereo unspecified) | inactive: 0.35% |
| COc1ccccc1OP(C)(=O)Nc1ccc(C)cc1C (stereo unspecified) | inactive: 0.7% |
| CCc1ccc(OP(C)(=O)O)cc1 | inactive: 2.35% |
